Pooled drug test results. Numbers come from NIAID ChemDB, via PubChem.

All rows: growth or infection tests; organism: Mycobacterium avium; read-out: MIC

Blank or dashed fields: not listed here. Rows are shuffled and stem from different studies.

{"compound": "Cc1ccc2nc(SCc3cccnc3)[nH]c2c1", "strain": "MY330/88", "value": "250 µM"}
{"compound": "CO[C@H]1/C=C/O[C@@]2(C)Oc3c(C)c(O)c4c(O)c(c(/C=N/N5CCN(C)CC5)c(O)c4c3C2=O)NC(=O)/C(C)=C\\C=C\\[C@H](C)[C@H](O)[C@@H](C)[C@@H](O)[C@@H](C)[C@H](OC(C)=O)[C@@H]1C", "strain": "Isolate 90-1815", "value": "2.5 µg/mL"}
{"compound": "O=C(O)c1cn(C2CC2)c2c(F)c(N3CCC(N4CCCC4)C3)c(F)cc2c1=O", "strain": "PI2/6", "value": "1 µg/mL"}
{"compound": "CCc1cc(C(N)=S)ccn1", "strain": "3011", "value": ">8 µg/mL"}
{"compound": "O=C(Nc1ccc(Br)cc1)c1cc(Cl)ccc1OP(=O)(OCc1ccccc1)OCc1ccccc1", "strain": "MY330/88", "conditions": "7 d", "value": "62.5 µM"}
{"compound": "CCNCC1CCN(c2c(F)cc3c(=O)c(C(=O)O)cn4c3c2CCC4C)C1", "strain": "PI2/8", "value": "0.25 µg/mL"}
{"compound": "Cc1ccc2nc(SCc3cccc4ccccc34)[nH]c2c1", "strain": "MY330/88", "value": ">62.5 µM"}
{"compound": "O=C(Nc1ccc(Cl)cc1)c1cc(Cl)ccc1OP(=O)(OCc1ccccc1)OCc1ccccc1", "strain": "MY330/88", "conditions": "7 d", "value": "32 µM"}
{"compound": "O=C(O)c1cn(C2CC2)c2c(F)c(N3CCN4CCC3C4)c(F)cc2c1=O", "strain": "RG4", "value": "0.5 µg/mL"}
{"compound": "CC(C)N=c1cc2n(-c3ccc(Cl)cc3)c3ccccc3nc-2cc1Nc1ccc(Cl)cc1", "strain": "1435", "value": "0.5 µg/mL"}
{"compound": "c1ccc2c(CSc3nc4ccccc4[nH]3)cccc2c1", "strain": "MY330/88", "value": "125 µM"}
{"compound": "Cc1ccc(NC(=O)c2ccccc2N)cc1", "strain": "MY330/88", "value": ">250 µM"}
{"compound": "O=C(Nc1ccc(C(F)(F)F)cc1)c1cc(Cl)ccc1OP(=O)(OCc1ccccc1)OCc1ccccc1", "strain": "MY330/88", "conditions": "7 d", "value": "32 µM"}
{"compound": "c1cncc(CSc2ncn[nH]2)c1", "strain": "MY330/88", "value": ">1000 µM"}
{"compound": "CC[C@H]1OC(=O)[C@H](C)[C@@H](O[C@H]2C[C@@](C)(OC)[C@@H](O)[C@H](C)O2)[C@H](C)[C@@H](O[C@@H]2O[C@H](C)C[C@H](N(C)C)[C@H]2O)[C@](C)(OC)C[C@@H](C)C(=O)[C@H](C)[C@@H](O)[C@]1(C)O", "strain": "1625", "method": "broth dilution / radiometric", "conditions": "pH 7.4", "value": "1 µg/mL"}
{"compound": "CC[C@H]1OC(=O)[C@H](C)[C@@H](O[C@H]2C[C@@](C)(OC)[C@@H](O)[C@H](C)O2)[C@H](C)[C@@H](O[C@@H]2O[C@H](C)C[C@H](N(C)C)[C@H]2O)[C@](C)(O)C[C@@H](C)CN(C)[C@H](C)[C@@H](O)[C@]1(C)O", "strain": "3011", "value": "8 µg/mL"}
{"compound": "C[C@@H]1CN(c2c(F)c(N)c3c(=O)c(C(=O)O)cn(C4CC4)c3c2F)C[C@H](C)N1", "strain": "PI4/44", "value": "0.5 µg/mL"}
{"compound": "O=c1oc2ccccc2c(=O)n1-c1ccc(Cl)c(Cl)c1", "strain": "MY330/88", "value": "16 µM"}
{"compound": "N#Cc1cc(SCc2ccccn2)ccn1", "strain": "MY330/88", "value": "125 µM"}
{"compound": "O=c1[nH]c2ccccc2c(=O)n1-c1ccccc1", "strain": "MY330/88", "value": ">500 µM"}
{"compound": "O=C(Nc1ccc(C(F)(F)F)cc1)c1cc(Br)ccc1OP(=O)(OCc1ccccc1)OCc1ccccc1", "strain": "MY330/88", "conditions": "14 d", "value": "62.5 µM"}
{"compound": "N[C@@H]1CONC1=O", "strain": "3011", "value": "8 µg/mL"}
{"compound": "c1ccc2sc(SCc3ccncc3)nc2c1", "strain": "MY330/88", "value": "125 µM"}
{"compound": "O=C(Nc1ccccc1)c1ccccc1OP(=O)(Oc1ccccc1)c1ccccc1", "strain": "MY330/88", "conditions": "14 d", "value": "500 µM"}
{"compound": "CC1CN(c2c(F)c(N)c3c(=O)c(C(=O)O)cn(C4CC4)c3c2F)CCN1C", "strain": "RG3", "value": "0.25 µg/mL"}
{"compound": "COc1ccc(NC(=O)c2ccccc2N)cc1", "strain": "MY330/88", "value": ">250 µM"}
{"compound": "NC1CCN(c2c(F)cc3c(=O)c(C(=O)O)cn(C4CC4)c3c2F)C1", "strain": "PI2/8", "value": "0.12 µg/mL"}
{"compound": "O=C(Nc1ccc(F)cc1)c1ccccc1O", "strain": "MY330/88", "value": "62 µM"}
{"compound": "c1ccc(CSc2ncn[nH]2)nc1", "strain": "MY330/88", "value": "1000 µM"}
{"compound": "O=C(Nc1ccccc1)c1ccccc1OP(=O)(OCc1ccccc1)OCc1ccccc1", "strain": "MY330/88", "conditions": "7 d", "value": "500 µM"}

2 of the rows above, restated:

compound | strain | method | conditions | value
O=C(Nc1ccc(Cl)cc1)c1cc(Cl)ccc1OP(=O)(OCc1ccccc1)OCc1ccccc1 | MY330/88 |  | 7 d | 32 µM
O=C(O)c1cn(C2CC2)c2c(F)c(N3CCN4CCC3C4)c(F)cc2c1=O | RG4 |  |  | 0.5 µg/mL